Experimental data as given in publication PMC4634967, “Effects of Small Molecule Calcium-Activated Chloride Channel Inhibitors on Structure and Function of Accessory Cholera Enterotoxin (Ace) of Vibrio cholerae” (2015).

By UniProt entry, the sequences of proteins in these tests, tags left out. Where a name states a change or a piece, a line headed by the entry shows the natural chain unless it says otherwise.
UniProt P38441: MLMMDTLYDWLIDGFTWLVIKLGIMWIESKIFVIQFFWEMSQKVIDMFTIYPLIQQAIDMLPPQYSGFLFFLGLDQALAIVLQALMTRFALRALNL

Target: Ace (Accessory cholera enterotoxin) (Vibrio cholerae, UniProt P38441)
Test: thermal unfolding by far-UV CD at […] nm
Settings: 0.1 M potassium phosphate pH 8.0; 5 μM protein; reference: native Ace 52 °C

| SMILES | T M |
| --- | --- |
| CC(C)(C)C1CCc2c(sc(NC(=O)c3ccco3)c2C(=O)O)C1 (centres unmarked) | 57 °C |
| O=C(O)c1cc(O)c(O)c(OC(=O)c2cc(O)c(O)c(O)c2)c1 | 55 °C |
